Each molecule was assayed on Severe acute respiratory syndrome coronavirus 2 (assay: Inhibition of SARS-CoV-2 MPro using Boc-Abu-Tle-Leu-Gln-AMC as substrate assessed as Kinact/Ki ratio preincubated for 5 mins followed by substrate addition and measured after 60 mins). Settings: time 65.0 min.

Row | Compound | Ratio [M⁻¹ s⁻¹]
1 | C=CC(=O)[C@H](Cc1ccccc1)NC(=O)[C@H](CC(C)C)NC(=O)/C=C/c1ccc(OC(F)(F)F)cc1 | 7720
2 | C=CC(=O)[C@H](Cc1ccccc1)NC(=O)[C@H](CC(C)C)NC(=O)CCc1ccc(Cl)cc1Cl | 35800
3 | C=CC(=O)[C@H](Cc1ccccc1)NC(=O)[C@H](CC(C)C)NC(=O)COc1ccc(Cl)cc1 | 23800
4 | C=CC(=O)[C@H](Cc1ccccc1)NC(=O)[C@H](CC(C)C)NC(=O)c1cc2ccccc2n1C | 41000
5 | C=CC(=O)[C@H](Cc1cccc(F)c1)NC(=O)[C@H](CC(C)C)NC(=O)COc1ccc(Cl)cc1Cl | 24500
6 | C=CC(=O)[C@H](Cc1ccccc1)NC(=O)[C@H](CC(C)C)NC(=O)C(C)(C)Sc1ccccc1 | 73700
7 | C=CC(=O)[C@H](Cc1ccccc1)NC(=O)[C@H](CC(C)C)NC(=O)/C=C/c1ccc(N(C)C)cc1 | 9200

Reference: ChEMBL document CHEMBL6153062, “Design, Synthesis, and Unprecedented Interactions of Covalent Dipeptide-Based Inhibitors of SARS-CoV-2 Main Protease and Its Variants Displaying Potent Antiviral Activity” (J Med Chem, 2025)
